From paper PMC3486911 (PLoS Pathogens, 2012) come the findings set out here.

Protein sequences, listed by entry. Tags and fused reporters are not part of them. Residues count along the entry.
UniProt Q9JXV4, 20-274: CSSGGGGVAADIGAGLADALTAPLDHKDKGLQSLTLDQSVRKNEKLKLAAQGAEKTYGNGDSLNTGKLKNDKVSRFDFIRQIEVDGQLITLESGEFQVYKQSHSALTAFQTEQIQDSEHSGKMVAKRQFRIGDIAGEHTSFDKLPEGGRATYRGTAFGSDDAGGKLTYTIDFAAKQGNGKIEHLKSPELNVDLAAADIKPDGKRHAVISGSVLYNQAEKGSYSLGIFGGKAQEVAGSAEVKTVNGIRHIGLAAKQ
UniProt E6MV22, 20-274: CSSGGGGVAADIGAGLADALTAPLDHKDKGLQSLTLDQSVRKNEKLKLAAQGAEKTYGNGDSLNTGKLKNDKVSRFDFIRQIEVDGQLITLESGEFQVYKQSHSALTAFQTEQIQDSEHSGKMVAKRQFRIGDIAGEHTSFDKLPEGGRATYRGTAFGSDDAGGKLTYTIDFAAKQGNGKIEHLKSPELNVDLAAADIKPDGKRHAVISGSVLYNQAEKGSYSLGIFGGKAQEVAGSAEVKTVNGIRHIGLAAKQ

For orientation: pKd means −log10 of the Kd, conventionally taken in molar units. A lower pKd goes with a high Kd.

Test [1] has as its target V1 fHbp (V1.p1), wild type (Neisseria meningitidis) (UniProt Q9JXV4). The test can be described thus: SPR.
For test [2], the target named is V2 fHbp (V2.p21), wild type (Neisseria meningitidis) (UniProt E6MV22). The test can be described thus: SPR.

pKd: −log10 of the molar value.

On to “human factor H CCP 6 and 7 (fH67) (domain or fragment)”, for which the pKd was 8.49 in test [1] and 8.72 in test [2].
